Measurements as given in patent US20260382604A1, “Inhibitors of Type 1 Methionyl-tRNA Synthetase and Methods of Using Them” (published 2026).

Experiments:
[1] = test system: T. cruzi; experiment: T. cruzi growth inhibition assay
Description: Trypanosoma crud growth inhibition assay: The Tulahuen strain of T. cruzi that expresses the Escherichia coli 3-galactosidase gene was utilized (PMID: 8913471). Mammalian stages of parasites were grown at 37 °C on monolayers of murine 3T3 fibroblasts in RPMI 1640 (Biowhittaker Inc., Walkersville, Md.) with 10% fetal bovine serum, penicillin, streptomycin, and glutamine. Growth inhibition assays were performed in 96-well tissue culture plates (Costar, Cambridge, Mass.). First, 3T3 fibroblasts were inoculated at 103/well using RPMI 1640 without phenol red (Biowhittaker Inc.) plus 10% fetal bovine serum and glutamine. The next day, the plates were infected with T. cruzi trypomastigotes at 104/well. After 4 h, drugs were added in serial dilutions to give a final volume of 200 μl/well. The plates were incubated at 37 °C in 5% CO2 atmosphere for 6 days. At this time. CPRG (100 μM final) and Nonidet P-40 (0.1% final) (Sigma Chemical Co., St. Louis, Mo.) were added and the plates were incubated at 37 °C for approximately 4 h. Wells with 0-galactosidase activity turned the media from yellow to red, and this was quantified on an enzyme-linked immunosorbent assay reader at A570.

[2] = test system: S. aureus; experiment: Susceptibility testing (MIC), S. aureus; details: for S. aureus MIC: serum-free conditions
Description: (§1) Media and culture conditions. Mueller Hinton broth (MHB), cation adjusted Mueller Hinton broth (CA-MHB), Todd Hewitt Broth (THB) and Brain Heart Infusion broth (BHI) were purchased from Becton Dickinson (Franklin Lakes, NJ). Tryptic soy agar (TSA) plates and TSA with 5% sheep blood plates were purchased from Remel (San Diego, CA). MHB was used to assay all Staphylococcus aureus strains. CA-MHB was used for Staphylococcus epidermidis, Enterococcus faecalis, Enterococcus faecium, Escherichia coil, and Pseudomonas aeruginosa. THB broth supplemented with 1% yeast extract was used for Streptococcus pneumoniae and Streptococcus pyogenes. Staphylococcus. Enterococcus, Escherichia, and Pseudomonas strains were cultured at 37 °C with ambient air. Streptococcus strains were cultured in 37 °C with 5% CO2. Separate conditions for radiolabeled precursor uptake assays are described below.
Susceptibility testing: Minimum inhibitory concentration (MIC) determinations are performed in triplicate in 96-well round bottom microtiter plates (Corning, Corning NY) as described by the Clinical and Laboratory Standards Institute (CLSI). Serial two-fold dilutions of compounds are added to plates in 50 μL volumes. An additional 50 μL of media containing bacterial cells (1×10^6 CFUs/mL) is then added to each well. Maximum DMSO concentrations are 0.5%. Plates are incubated at 37 °C for at least 18 h before reading the susceptibility result by optical absorbance (OD600) using a BioTek ELx800. The lowest concentration causing ≥90% growth inhibition compared to the untreated control is recorded as the MIC (and also corresponded to the visual MIC). MICs are measured at least twice and the higher value (if different) is recorded herein.

[3] = test system: T. brucei; experiment: Trypanosoma brucei growth inhibition assay; details: read-out: T. brucei EC50; in vitro growth inhibition
Description: Trypanosoma brucei growth inhibition assay: Compounds are tested for anti-trypanosomal activity against Trypanosoma brucei cells (BSF 427 parasites) in HMI-9 media containing 10% heat inactivated FBS 100 U mL^−1 penicillin/100 μg mL^−1 streptomycin at 37 °C with 5% CO2. Test compounds are assayed in a 96-well format in triplicate with serial 3-fold dilutions of compound or a pentamidine control against an initial inoculum of 10 000 cells/well and quantified at 48 hours with Alamar Blue (Invitrogen, Waltham, MA).

[4] = test system: MRSA; experiment: Susceptibility testing (MIC), MRSA
Description: as §1
(§2) Susceptibility testing: Minimum inhibitory concentration (MIC) determinations are performed in triplicate in 96-well round bottom microtiter plates (Corning, Corning NY) as described by the Clinical and Laboratory Standards Institute (CLSI). […] Plates are incubated at 37 °C for at least 18 h before reading the susceptibility result by optical absorbance (OD600) using a BioTek ELx800. […] MICs are measured at least twice and the higher value (if different) is recorded herein.

[5] = test system: S. pyogenes; experiment: Susceptibility testing (MIC), S. pyogenes
Description: as §1, §2

[6] = read-out: In Vitro EC50, anti-T. cruzi activity in vitro (Table 3)

Compound | EC50 [1, 6] | S. aureus MIC [2] | also measured
CCc1ncn(-c2nc(F)c(-c3cc(OC)c(OC)cc3Cl)n3cc(Cc4nc5nc(Cl)ccc5[nH]4)nc23)n1 | 9.29 nM and 2.96 nM |  | 
COc1cc(Cl)c(-c2cnc(S(C)(=O)=O)c3nn(Cc4nc5nc(Cl)ccc5[nH]4)cc23)cc1OC |  |  | S. aureus (ATCC29213) MIC [2]: < 0.0312 μg/mL and 0.0457 μg/mL
COc1cc(Cl)c(-c2cnc(Cl)c3nn(Cc4nc5nc(Cl)ccc5[nH]4)cc23)cc1OC |  |  | S. aureus (ATCC29213) MIC [2]: 0.127 μg/mL and 0.0504 μg/mL
COc1cc(Cl)c(-c2c(F)nc(-c3cnn(CCO)c3)c3nc(Cc4nc5nc(Cl)ccc5[nH]4)cn23)cc1OC | 3.09 nM and 9.56 nM |  | 
COc1cc(Cl)c(-c2c(F)nc(-n3cnc(C)n3)c3nc(Cc4nc5nc(Cl)ccc5[nH]4)cn23)cc1OC | 4.79 nM and 1.15 nM |  | 
COc1cc(Cl)c(-c2c(F)nc(-c3cncnc3)c3nc(Cc4nc5nc(Cl)ccc5[nH]4)cn23)cc1OC |  | 0.0359 ug/mL and < 0.0312 ug/mL | 
COc1cc(Cl)c(-c2c(F)nc(-c3cccnc3)c3nc(Cc4nc5nc(Cl)ccc5[nH]4)cn23)cc1OC | < 1.83 nM, 3.93 nM, 4.54 nM | < 0.0312 ug/mL and 0.0368 ug/mL | 
COc1cc(Cl)c(-c2c(F)nc(-c3c(C)nn(C)c3C)c3nc(Cc4nc5nc(Cl)ccc5[nH]4)cn23)cc1OC | 1.49 nM, 5.99 nM, 2.25 nM |  | 
COc1cc(Cl)c(-c2c(F)nc(-c3ccncc3)c3nc(Cc4nc5nc(Cl)ccc5[nH]4)cn23)cc1OC |  | < 0.0312 ug/mL and 0.0135 ug/mL | 
COc1cc(Cl)c(-c2c[n+]([O-])cc3nn(Cc4nc5nc(Cl)ccc5[nH]4)cc23)cc1OC |  |  | S. aureus (ATCC29213) MIC [2]: 0.699 μg/mL and 3.64 μg/mL; EC50 [3]: 65.7 nM, 561 nM, 427 nM
CCn1cc(-c2nc(F)c(-c3cc(OC)c(OC)cc3Cl)n3cc(Cc4nc5nc(Cl)ccc5[nH]4)nc23)cn1 | < 1.83 nM, 3.95 nM, 6.41 nM |  | 
COc1cc(Cl)c(-c2cnc(NCC(F)F)c3nn(Cc4nc5nc(Cl)ccc5[nH]4)cc23)cc1OC |  |  | EC50 [3]: 2.89 nM and 17.2 nM
COc1cc(F)c(-c2c(F)nc(-c3cncnc3)c3nc(Cc4nc5nc(Cl)ccc5[nH]4)cn23)cc1OC |  | < 0.0312 ug/mL and 0.0346 ug/mL | 
COc1cc(Cl)c(-c2cncc3nn(Cc4nc5nc(F)ccc5[nH]4)cc23)cc1OC |  |  | MRSA (ATCC33591) MIC [4]: 0.123 μg/mL and 0.0519 μg/mL
COc1cc(Cl)c(-c2cnc(N3CCNC(=O)C3)c3nn(Cc4nc5nc(Cl)ccc5[nH]4)cc23)cc1OC |  |  | S. pyogenes (ATCC19615) MIC [5]: < 0.0312 μg/mL and 0.0729 μg/mL; EC50 [3]: 4.42 nM and 16.3 nM
COc1cc(Cl)c(-c2cncc3nn(Cc4nc5nc(Cl)ccc5[nH]4)cc23)cc1OC |  |  | S. aureus (ATCC29213) MIC [2]: < 0.0312 μg/mL and 0.101 μg/mL
COc1cc(Cl)c(-c2c(F)nc(OC)c3nc(Cc4nc5nc(Cl)ccc5[nH]4)cn23)cc1OC | 1.97 nM and 6.16 nM |  | 
COc1cc(Cl)c(-c2c(F)nc(-c3cn(C)nc3C)c3nc(Cc4nc5nc(Cl)ccc5[nH]4)cn23)cc1OC | < 1.83 nM, 3.86 nM, 6 nM | 0.0995 ug/mL and 0.0253 ug/mL | 
COc1cc(Cl)c(-c2c(F)nc(-c3ccn(C)n3)c3nc(Cc4nc5nc(Cl)ccc5[nH]4)cn23)cc1OC |  | < 0.0312 ug/mL and 0.0171 ug/mL | 
COc1cc(Cl)c(-c2cnc([S+](C)[O-])c3nn(Cc4nc5nc(Cl)ccc5[nH]4)cc23)cc1OC (stereo not shown) |  |  | EC50 ([1]; read-out: T. cruzi EC50, in vitro growth inhibition (Table 4)): 94.7 nM, 222 nM, 245 nM
COc1cc(Cl)c(-c2cnc(NCC(C)(C)O)c3nn(Cc4nc5nc(Cl)ccc5[nH]4)cc23)cc1OC |  |  | EC50 [3]: 2.35 nM and 8.47 nM
COc1cc(Cl)c(-c2c(F)nc(-c3ccnn3C)c3nc(Cc4nc5nc(Cl)ccc5[nH]4)cn23)cc1OC | < 1.83 nM, 3.73 nM, 4.54 nM | < 0.0312 ug/mL and 0.0458 ug/mL | 
COc1cc(Cl)c(-c2c(F)nc(-c3c(C)cnn3C)c3nc(Cc4nc5nc(Cl)ccc5[nH]4)cn23)cc1OC | < 1.83 nM, 8.92 nM, 9.05 nM | 0.0351 ug/mL and 0.101 ug/mL | 
COc1cc(Cl)c(-c2cnc(N3CCOCC3)c3nn(Cc4nc5nc(Cl)ccc5[nH]4)cc23)cc1OC |  |  | S. aureus (ATCC29213) MIC [2]: 0.257 μg/mL and 0.102 μg/mL; EC50 [3]: < 0.91 nM, 3.26 nM, 1.06 nM

Read-outs that look alike come from different tables or passages of the source. Certain results were filed several times, with different values. Only these are listed. An entry can have further records. Results that share an entry differ for a reason that is not stated; dose, time, organism, isomer or construct need not be as stated for each record.
